Measurements as given in patent US12286418B2, “Compounds and methods for treating or preventing bacterial infections” (priority 2019, dated 2025).

By UniProt entry, the sequences of proteins in these tests, tags left out. Residues count along the entry.
UniProt Q6XEC0, 23-265 limits assumed: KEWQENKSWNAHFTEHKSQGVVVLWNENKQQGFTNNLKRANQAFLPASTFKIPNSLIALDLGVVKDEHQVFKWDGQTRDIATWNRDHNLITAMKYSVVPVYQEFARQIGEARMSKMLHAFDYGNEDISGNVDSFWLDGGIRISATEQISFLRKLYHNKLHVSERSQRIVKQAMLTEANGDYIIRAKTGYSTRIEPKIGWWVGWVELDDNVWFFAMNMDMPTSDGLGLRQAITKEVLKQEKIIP
UniProt Q2TR58, 19-280 limits assumed: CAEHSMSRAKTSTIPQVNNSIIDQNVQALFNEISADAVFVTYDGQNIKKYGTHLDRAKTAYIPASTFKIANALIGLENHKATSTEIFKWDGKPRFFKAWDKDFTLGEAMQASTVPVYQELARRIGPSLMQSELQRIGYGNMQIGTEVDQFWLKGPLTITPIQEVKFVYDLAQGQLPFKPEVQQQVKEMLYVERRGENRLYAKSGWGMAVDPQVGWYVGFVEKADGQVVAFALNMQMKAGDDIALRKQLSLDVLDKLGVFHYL
UniProt Q8RLA6, 21-275 limits assumed: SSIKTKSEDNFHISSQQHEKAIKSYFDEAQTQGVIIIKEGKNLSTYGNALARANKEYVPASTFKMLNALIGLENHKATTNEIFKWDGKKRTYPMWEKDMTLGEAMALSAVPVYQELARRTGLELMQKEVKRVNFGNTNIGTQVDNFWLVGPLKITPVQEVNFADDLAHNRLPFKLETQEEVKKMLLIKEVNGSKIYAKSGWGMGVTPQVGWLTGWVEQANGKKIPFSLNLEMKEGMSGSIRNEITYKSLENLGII

Experiments:
OXA-48 [1] = molecular target: T1, OXA-48 (Klebsiella pneumoniae, UniProt Q6XEC0); assay: Example 8 inhibition assay with nitrocefin (aromatic acids): OXA-48; type: biochemical; conditions: for Ki: OXA-48 0.2 nM, 25 μM nitrocefin
OXA-58 = OXA-58 (Acinetobacter baumannii, UniProt Q2TR58); conditions: OXA-58 0.1 nM, 25 μM nitrocefin
OXA-48 [2] = molecular target: T1, OXA-48; assay: OXA-48 inhibition assay using nitrocefin as reporter; type: biochemical; conditions: for Ki: read-out: Ki for OXA-48 inhibition, purified OXA-48, nitrocefin hydrolysis, Morrison fit
OXA-24 = OXA-24 (Acinetobacter baumannii, UniProt Q8RLA6); assay: Example 8 inhibition assay with nitrocefin (aromatic acids): OXA-24; type: biochemical; conditions: for Ki: OXA-24 0.2 nM, 25 μM nitrocefin; for fold decrease in activity against OXA-24 versus Compounds 2.1 and 2.2: relative to Compounds 2.1 and 2.2

In the case of `O=C(O)c1cccc2c1Cc1ccccc1-2`, the “inhibition activity against OXA-48 in words” value (OXA-48 [1]) is reported as “below millimolar” and the Ki (OXA-58) is reported as 313 µM.
For `CCOc1ccccc1N1CCN(c2ccnc(N3CCC(C(=O)O)CC3)n2)CC1`, the Ki (OXA-48 [2]) was 0.76 µM.
Work on `Nc1ccc(N=Nc2ccc(S(=O)(=O)O)cc2)cc1S(=O)(=O)O` yielded a Ki (OXA-24) of 9.22 µM, a Ki (OXA-48 [1]) of 11 µM and a Ki (OXA-58) of 2.6 µM.
`CCOc1ccccc1N1CCN(c2nccc(N3CCC(C(=O)O)CC3)n2)CC1` was tested, and the Ki (OXA-48 [2]) was 0.59 µM.
With `O=C(O)c1ccc(-c2cccc(C(=O)O)c2)cc1` the “fold decrease in activity against OXA-24 versus Compounds 2.1 and 2.2” value (OXA-24) was 10 fold, the “ligand efficiency (LE) for OXA-48 inhibition” value (OXA-48 [1]; LE=1.37 (pKi)/(# non-Hydrogen atoms)) was 0.41 and the Ki (OXA-48 [1]) was 4 µM. For the same molecule, the “fold more potent than Compound 2.1 for OXA-48 inhibition” value (OXA-48 [1]; relative to Compound 2.1) was “about 4 fold”.
With `O=S(=O)(O)c1ccc2c(c1)Cc1cc(S(=O)(=O)O)ccc1-2` the Ki (OXA-24) was 69 µM, the Ki (OXA-48 [1]) was 2.44 µM and the Ki (OXA-58) was 5.6 µM.
For `CCOc1ccccc1N1CCN(c2ncnc(N3CCC(NC(=O)[C@@H](N)CCCCN)(C(=O)O)CC3)n2)CC1`, the “fold reduction in potency (OXA-48 Ki) compared to CDD-97” value (OXA-48 [2]; relative to CDD-97) was 20 fold.
In the case of `OB(O)c1ccc2c(c1)Cc1ccccc1-2`, the “inhibition activity against OXA-48 in words” value (OXA-48 [1]) is reported as “below millimolar” and the Ki (OXA-58) is reported as 172 µM.
Work on `CCOc1ccccc1N1CCN(c2cc(N3CCC(C(=O)O)CC3)ncn2)CC1` yielded a Ki (OXA-48 [2]) of 4.1 µM.
For `O=C(O)c1ccc(-c2ccc(C(=O)O)cn2)nc1`, the “fold decrease in activity against OXA-24 versus Compounds 2.1 and 2.2” value (OXA-24) was 5 fold and the Ki (OXA-48 [1]) was 21 µM.
In the case of `O=S(=O)(O)c1ccc(-c2ccc(S(=O)(=O)O)cc2)cc1`, the Ki (OXA-48 [1]) is reported as 6 µM.
